Anti-infective test results gathered from many reports (values: NIAID ChemDB through PubChem).

Common to all: target-level tests; species: HIV-1; protein: Reverse transcriptase; read-out: IC50

Rows are shuffled and stem from different studies. An empty or dashed field is not shown. ICn is the concentration giving n% inhibition.

smiles,strain or isolate,mutations,method,result
CCC1(c2cccc(N)c2)Oc2ccccc2-n2cccc2C1=O,,RT-Y188L,nucleotide incorporation / radiometric,>10 µM
COc1ccc(NC(=O)CSc2nnnn2-c2c(C)cc(C)cc2C)c(C)c1,,,nucleotide incorporation / radiometric,<2 µM
CC(C)=CCOc1cc(NC(=S)c2ccoc2C)ccc1Cl,,RT-P236L,,1.1 µM
Cc1cc(C)c(-n2nnnc2SCC(=O)Nc2ccccc2C#N)c(C)c1,,,nucleotide incorporation / radiometric,<2 µM
CCC1(c2ccc(Cn3ccsc3=N)cc2)Oc2ccccc2-n2cccc2C1=O,,RT-Y188L,nucleotide incorporation / radiometric,>10 µM
Cc1cn([C@H]2C=C[C@@H](COP(=O)(O)OP(=O)(O)OP(=O)(O)O)O2)c(=O)[nH]c1=O,,RT-I135A,nucleotide incorporation / radiometric,0.16 µM
COc1ccc2c(c1)N(C(=O)OC(C)C)[C@@H](CSC)C(=S)N2,,,scintillation proximity / radiometric,0.08 µM
Cc1cc(C)c(-n2nnnc2SCC(=O)Nc2ccc(S(N)(=O)=O)cc2)c(C)c1,,,nucleotide incorporation / radiometric,<2 µM
CCN1c2ncc(CCOc3ccncc3)cc2C(=O)N(C)c2cccnc21,WT,,nucleotide incorporation / radiometric,<1 µM
Cc1c(Sc2ccccc2)n(COCCO)c(=O)[nH]c1=O,,RT-Y181I,,~4 µM
Cc1cccc(Cl)c1-n1nnnc1SCC(=O)Nc1ccccc1Cl,,,nucleotide incorporation / radiometric,<2 µM
Cc1cc(S(N)(=O)=O)ccc1NC(=O)COc1ccc(Cl)cc1C(=O)c1cc(Cl)cc(C#N)c1,,RT-V106I,fluorescence,0.0027 µM
CCN1c2ncc(C=O)cc2C(=O)N(C)c2ccc(F)nc21,,RT-Y181C,nucleotide incorporation / radiometric,>1 µM
CCC1(c2cccc(COc3ccccc3)c2)Oc2ccccc2-n2cccc2C1=O,,RT-Y188L,nucleotide incorporation / radiometric,10 µM
CCN1c2ncc(CS(=O)(=O)c3ccccc3)cc2C(=O)N(C)c2ccc(Cl)nc21,,RT-Y181C,nucleotide incorporation / radiometric,<1 µM
Cc1cc(C)c(-n2nnnc2SCC(=O)Nc2ccccc2Cl)c(C)c1,,,nucleotide incorporation / radiometric,<2 µM
CCN1c2ncc(CO)cc2C(=O)N(C)c2ccc(F)nc21,,RT-Y181C,nucleotide incorporation / radiometric,<1 µM
O=C(CSc1nnnn1-c1cccc2ccccc12)Nc1ccccc1,,,nucleotide incorporation / radiometric,<2 µM
CCN1c2ncc(CCc3ccccc3)cc2C(=O)N(C)c2ccc(-c3ccc[nH]3)nc21,WT,,nucleotide incorporation / radiometric,<1 µM
C=C(C)CCOCc1ccc(C2(CC)Oc3ccccc3-n3cccc3C2=O)cc1,,RT-K103N,nucleotide incorporation / radiometric,>10 µM
Cc1cc(C)c(-n2nnnc2SCC(=O)Nc2ccc(Cl)cc2F)c(C)c1,,,nucleotide incorporation / radiometric,<2 µM
CCN1c2ncc(COc3ccccc3)cc2C(=O)N(C)c2ccc(Cl)nc21,WT,,nucleotide incorporation / radiometric,<1 µM
O=C(CSc1nnnn1-c1cccc2ccccc12)Nc1ccccn1,,,nucleotide incorporation / radiometric,<2 µM
CCN1c2ncc(CNc3cccc(N)c3)cc2C(=O)N(C)c2ccc(Cl)nc21,,RT-Y181C,nucleotide incorporation / radiometric,<1 µM

For reference, 3 entries again:

smiles	strain or isolate	mutations	method	result
Cc1cc(C)c(-n2nnnc2SCC(=O)Nc2ccc(S(N)(=O)=O)cc2)c(C)c1			nucleotide incorporation / radiometric	<2 µM
Cc1cc(C)c(-n2nnnc2SCC(=O)Nc2ccc(Cl)cc2F)c(C)c1			nucleotide incorporation / radiometric	<2 µM
O=C(CSc1nnnn1-c1cccc2ccccc12)Nc1ccccc1			nucleotide incorporation / radiometric	<2 µM